Results of single-concentration screens

Results are given as percent effect. The controls that fix the scale are not given in the record; negative values are as filed. The entries come from a sample that favours strong results. Two or more numbers in one place are separate tests of the same structure; such repeats can differ widely.

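Phenotypic screen: M. tuberculosis growth, cholesterol and DPPC medium, 4 days; the read-out is not stated. Concentration: 50 µM. Direction is inferred from retests: higher values go with more growth inhibition. Of about 69,000 compounds tested this way, about 370 (0.54%) reached 50% or more in at least one test.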

structure,Percent Effect
COc1cccc(OC2CN(C(=O)c3ccnc(OC)c3)C2)c1,0.6346%
CCCNC(=O)NC(=O)CNC(C)(C)c1ccc2c(c1)OCCO2,69.64%
Cc1ncsc1CN(C)C(=O)C(CC(C)C)N1CCCCC1=O (configuration not stated),7.137%
CNS(=O)(=O)CC(=O)N(Cc1c(F)cccc1Cl)C1CC1,-6.095%
COCc1ccc(CNc2cncc(-n3cccn3)n2)cc1,20.88%
COCCCN(C)C(=O)c1nnn(-c2ccccc2Cl)c1C,7.162%
CCOc1ccc(N2CCCN=C2NC(=O)c2cccc(C)c2)cc1,-20.55%
COc1ccc(CCNC(=O)C(C)Nc2ccc(C)c(C)c2)cc1 (configuration not stated),-6.44%
COc1ccc(OC)c(CNc2nnc(C(C)(C)C)o2)c1,9.662%
NC(=O)N1CCC2(CC1)CN(c1ccsc1)C(=O)CO2,-25.67%
COCCN1CCC(CN(C)c2ncnc3c2c(C)nn3C)C1 (configuration not stated),-13.18%
CCOCCN1CCN(C(C)C(=O)Nc2ccnn2C(C)C)CC1 (configuration not stated),2.55%
Cc1n[nH]cc1C(=O)N1CCCC1c1cc[nH]n1 (configuration not stated),0.4157%
c1coc(-c2nc3c(c(NCc4n[nH]c5c4CCC5)n2)CCNCC3)c1,-1.229%
CS(=O)(=O)NCC1CCCCN1Cc1ccccc1C#N (configuration not stated),27.29%
O=C1Nc2ccccc2CN(CC2CC2)C12CCNC2 (configuration not stated),4.779%
CCCN1CCC(NC(=O)c2csc(C)c2-c2ccccc2)CC1,-1.118% and 2.454%
COCCN(C)C(=O)Cn1cccc(OC)c1=O,-26.81%
Clc1ccc(OCCc2cc(C3CCN(c4ncccn4)C3)n[nH]2)cc1 (configuration not stated),58.2% and 43.19%
O=C(c1cc(Br)c[nH]1)N1CCN(Cc2ccco2)CC1,15.25%
CCS(=O)(=O)CCNC1CCN(c2nc3ccc(Cl)cc3s2)CC1,8.415%
CCN(C(=O)CCOC)C(c1ccc(Cl)cc1)c1ccccn1 (configuration not stated),-5.115%
CC(C)(O)CCc1cccc(C(=O)NCC2COCCO2)c1 (configuration not stated),-10.72%
CC(C)CNC(=O)c1cc2c(s1)CCN2Cc1cccnc1,64.49%
COc1cc(C(=O)NCCc2ccccc2OC)on1,42.91%
NS(=O)(=O)c1ccc(CC(=O)N2CCCC(n3cccn3)C2)cc1 (configuration not stated),18.39%
COc1ccccc1OCCCn1c(C)c(C)oc1=O,-8.411%
O=C(NC1CCN(c2ncccn2)CC1)c1sccc1C1CC1,-2.505%
c1cncc(-c2nc3c(c(NCC4(c5ccncc5)CC4)n2)CCC3)c1,-3.819%
CCc1ccccc1OC1CN(C(=O)c2ccnc(OC)c2)C1,66.86%
CCc1noc(CNc2nc(-c3cccnc3)nc3c2CCNCC3)n1,12.22%
CC(C)c1nc(C(=O)N(C)c2ccc(Br)cn2)cs1,22.09%
CC(=O)Nc1nc(-c2ccccc2)c[nH]1,-3.051%
CC(C)=CCN1CCc2onc(-c3ccc(F)c(F)c3)c2C1,-16.16%
Fc1cccnc1N1CCC2(CNCCC2(F)F)C1 (configuration not stated),-37.39%
Cc1cnn(C2CN(c3ccccc3S(=O)(=O)C(F)(F)F)C2)c1,50.4%
CCC1CN(C(=O)c2csc3nc(-c4ccc(Cl)cc4)cn23)CCN1 (configuration not stated),57.98%
Cc1cc2n(n1)CCN(c1nc(N(C)C)nc3c1CCNC3)C2,9.655%
NC(=O)C1=NC2=NS(=O)(=O)c3ccccc3N2N1Cc1ccccc1Cl,16.33%
CN(C)c1nccc(CNC(=O)NC(C)(C)C)n1,21.92%
Cc1ccc(N(CC(=O)N2CCCCC2)C(=O)C2CCCO2)cc1 (configuration not stated),-1.728% and -1.361%
Cc1nc(C2CCCN2Cc2cc(Cl)c3c(c2)OCO3)no1 (configuration not stated),47.82%
CC(C)c1nnc(NCc2ccsc2)o1,2.025%
Cc1nsc(NCCNS(=O)(=O)c2ccccc2)n1,6.611%
CC(Nc1ncnc2c1NC(=O)CN2)c1ccc2c(c1)OCO2 (configuration not stated),9.34%
CN(C)CCN(C)c1ccc(-c2nc(COc3ccccc3)no2)cn1,51.64%
Cl.O=c1c2sccc2nc2n1CCN(Cc1cc(F)ccc1F)CC2,47.09%
Cc1cc(-c2cnc(NCc3cccnc3)nc2C(C)C)on1,8.686%
COc1ccnc(NC(Cc2ccccc2)C(=O)N(C)C)n1 (configuration not stated),33.38% and 3.454%
COC(C)(C)CC(C)NC(=O)Nc1ccccn1 (configuration not stated),1.651%
CC(O)CNc1c(NCc2ccco2)c(=O)c1=O (configuration not stated),-3.237%
CCc1nc(Cn2nc(COC)oc2=O)cs1,35.28%
CC(C)(C)c1cc(C(=O)NCCN2CCCS2(=O)=O)[nH]n1,-9.474%
O=C(NCc1ccco1)N1CCN(Cc2ccc3c(c2)CCO3)CC1,76.73%
CC(O)(CNc1ccccn1)c1ccccc1 (configuration not stated),-21.23%
COc1ccc(F)cc1CN(CC(N)=O)C(C)C,-35.23%
CCN(C(=O)CN1CCCC1c1ccc(F)cc1)c1ccccc1C (configuration not stated),4.393%
CC(Nc1ccc2c(c1)CCC2)c1nc(C2CC2)no1 (configuration not stated),57.35%
CCSc1ncc(CN2CCN(c3nc(C)cnc3C)CC2)cn1,51.65%
Cc1ccn(-c2ccc(NCc3cccnc3N3CCCCC3)nn2)n1,-119.6% and 9.22%
COc1cccc(C(CO)NC(=O)Cc2ccc(F)c(Br)c2)c1 (configuration not stated),8.311% and 56.06%
NC(CC1CCCC1)c1ccc(Oc2ccccc2)cc1 (configuration not stated),105.7%
CC(C)COC(C)C(=O)NCc1ccc(OC(C)C)nc1 (configuration not stated),9.329%
O=C(CCNC(=O)C1=Cc2ccccc2OC1)NCc1ccncc1,-8.894%
[H][C@@]12CC[C@H](Oc3ccccc3Cl)[C@]1([H])CN(C(=O)COCCOC)C2,-15.23%
C=C/C=c1\c(=C/C)oc2c(NCc3ccccc3)ncnc12,38.56%
Cc1cnn(C2CN(Cc3noc(-c4ccccc4)n3)C2)c1,33.32%
Cc1nc(CN2CCCC(CCc3cccc(C(F)(F)F)c3)C2)co1 (configuration not stated),50.62%
COc1ccc(-c2nc(CN3CC(n4cc(C)cn4)C3)no2)cc1,51.03%
O=C(NCc1ccccn1)N1CC=C(c2ccccc2)CC1,-16.1%
CNC(=O)c1[nH]nc2ccc(I)cc12,8.702%
COc1ccc(CS(=O)(=O)CC(=O)NCC2CC2)cc1F,-7.643%
CC(C)c1nc(CN(C)S(=O)(=O)c2cccs2)cs1,-4.496%
CCC(Nc1nnnn1-c1ccccc1)C(=O)NCc1ccsc1 (configuration not stated),-7.701%
O=C1NC2(CCCN(C(=O)CCn3cccn3)C2)Oc2ccccc21 (configuration not stated),61.98% and 6.591%
Cc1ccc(-c2noc(CN3CC(n4cc(C)cn4)C3)n2)cc1,57.51%
O=C(NCc1ccc(-n2cncn2)nc1)c1cc[nH]n1,5.68%
Clc1cccc(-c2cccc(N3CCC(NC4CCOCC4)CC3)c2)c1,80.29%
O=C(NC1CCCN(CCCc2ccccc2)C1)C1=CCCCC1 (configuration not stated),19.32%
CCCc1nnc(N2CC[C@@](O)(C3CCOCC3)[C@H](C)C2)s1,-34.09%
COc1ccc(Oc2ccc(C(F)(F)F)cn2)cc1CN1CCCC1,21.72%

Some entries from above, unchanged:

{"structure": "CCCN1CCC(NC(=O)c2csc(C)c2-c2ccccc2)CC1", "Percent Effect": "-1.118 and 2.454"}
{"structure": "COc1ccc(CCNC(=O)C(C)Nc2ccc(C)c(C)c2)cc1", "stereo": "configuration not stated", "Percent Effect": -6.44}
{"structure": "O=C1Nc2ccccc2CN(CC2CC2)C12CCNC2", "stereo": "configuration not stated", "Percent Effect": 4.779}
{"structure": "COC(C)(C)CC(C)NC(=O)Nc1ccccn1", "stereo": "configuration not stated", "Percent Effect": 1.651}
{"structure": "Cc1ccc(-c2noc(CN3CC(n4cc(C)cn4)C3)n2)cc1", "Percent Effect": 57.51}
{"structure": "Cc1cnn(C2CN(Cc3noc(-c4ccccc4)n3)C2)c1", "Percent Effect": 33.32}
{"structure": "CN(C)c1nccc(CNC(=O)NC(C)(C)C)n1", "Percent Effect": 21.92}
{"structure": "O=C(NC1CCN(c2ncccn2)CC1)c1sccc1C1CC1", "Percent Effect": -2.505}
{"structure": "COc1ccc(Oc2ccc(C(F)(F)F)cn2)cc1CN1CCCC1", "Percent Effect": 21.72}
{"structure": "COCc1ccc(CNc2cncc(-n3cccn3)n2)cc1", "Percent Effect": 20.88}

Data taken from ChEMBL document CHEMBL3988442, “University of Dundee, Small-Polar-MMV Screening Library” (2021).